Laboratory results taken from PMC8811161.
Construct, isoform or probe ends are uncertain for at least one entry.

Assays:
Test in all cases: EMSA
Details in all cases: EMSA: 1 nM probe, 25 mM Tris-HCl pH 8.0, 50 mM KCl, 5 mM MgCl2, 0.5 mM EDTA, 10% glycerol, room temperature 30 min; 5% native PAGE at 4 C; recombinant protein; residues 1-224; protein details: 6xHis (pET28a); label: 6-FAM at 5' end of both primers; probe letters rebuilt from the primers and the genome
[1] = target: PhoP R65A (Salmonella enterica serovar Typhimurium SL1344) (UniProt E1WFA1)
[2] = target: PhoP R118A (Salmonella enterica serovar Typhimurium SL1344) (UniProt E1WFA1)
[3] = target: PhoP wild type (Salmonella enterica serovar Typhimurium SL1344) (UniProt E1WFA1)
[4] = target: PhoP R66A (Salmonella enterica serovar Typhimurium SL1344) (UniProt E1WFA1)

Measured: binding result

ATCCTCTACAACCAGTACGCGCATCATCTCTTCTCCCTTGTGTTAACAATAAGAACAGTCTAGCGTTGATTATGGTGCTTTGGGGATAAACAGTTAATAAACCAGACAAATAGTCACCCTCTTTCTGAAGAAAAGAGGGTGAGGCAGGCATTATTTAAGTTCGTCGACCAGAGTCACAGCGCGA (double strand) [phoP promoter]
binds: all assays above
